Test results reported in PubChem BioAssay AID2234 (The Scripps Research Institute Molecular Screening Center, 2010).
The entries are a selection whose mix differs from that of the whole data set. Active and inactive are the calls of the source. Cut-off read from the data, not from the text of the source: active = inhibition above about 33%; inactive = the rest.

Chains of the proteins cited; added tags and fusions are not shown.
UniProt P03206, whole entry: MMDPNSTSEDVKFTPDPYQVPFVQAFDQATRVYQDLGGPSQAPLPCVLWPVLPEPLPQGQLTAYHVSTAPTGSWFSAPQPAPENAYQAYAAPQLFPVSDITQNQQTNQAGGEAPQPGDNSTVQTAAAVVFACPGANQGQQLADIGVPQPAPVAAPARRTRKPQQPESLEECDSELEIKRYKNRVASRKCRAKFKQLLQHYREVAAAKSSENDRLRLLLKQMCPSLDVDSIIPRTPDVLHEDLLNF

target: Lytic switch protein BZLF1 (Epstein-Barr virus (strain B95-8)) (UniProt P03206); assay: Zta-DNA interaction blockers, Epstein-Barr virus – biochemical, fluorescence polarization, single concentration, counter-screen for EBNA-1 inhibitor project, primary screen (AID 2234); conditions: ZTA-DNA binding, at 11 µM, hits give high values

Row | SMILES | inhibition
1 | CCOC(=O)N1CCC(Nc2ccc(C)cc2)CC1 | inactive: 1.37%
2 | N/C(=N\O)c1c(N)no[n+]1[O-] | inactive: 3.68%
3 | CCc1cc(C(=O)NCC2(N3CCCCC3)CCCCC2)sc1C | inactive: -8.99%
4 | O=C(OC1CN2CCC1CC2)C1c2ccccc2C=Cc2ccccc21 (stereo unspecified) | inactive: -2.65%
5 | O=C(NCC1(N2CCOCC2)CCCCC1)c1cc(Br)ccc1Cl | inactive: 7.03%
6 | COc1ccc(C(=O)NCC2(N3CCOCC3)CCCCC2)cc1OC | inactive: 0.2%
7 | CN(C)C1(CNC(=O)c2cccc(C#N)c2)CCCCC1 | inactive: 0.65%
8 | CCCN1CCC(Nc2cc(OC)cc(OC)c2)CC1 | inactive: -12.7%
9 | c1ccc(CN2CCC(Nc3ccccc3)CC2)cc1 | inactive: 5.71%
10 | N#Cc1ccc(C(=O)NCC2(N3CCCCC3)CCCCC2)cc1 | inactive: 1.74%
11 | CC(C)(C)OC(=O)N1CCC(N(C(=O)c2ccccc2)c2ccc(Cl)cc2)CC1 | inactive: -6.43%
12 | CCN1CCC(Nc2cccc(F)c2)CC1 | inactive: 1.13%
13 | CN(C)c1ccc(C(=O)NCC2(N3CCCCC3)CCCCC2)cc1 | inactive: -8.43%
14 | O=C(NCC1(N2CCCCC2)CCCCC1)c1ccco1 | inactive: -5.83%
15 | COc1cc(OC)cc(C(=O)NCC2(N3CCCCC3)CCCCC2)c1 | inactive: 1.7%
16 | Fc1ccccc1NC1CCN(Cc2ccccc2)CC1 | inactive: -2.1%
17 | Cc1ccc(C(=O)NCC2(N3CCCCC3)CCCCC2)o1 | inactive: 11.6%
18 | COc1cccc(C(=O)N(c2cc(C)cc(C)c2)C2CCN(C(=O)OC(C)(C)C)CC2)c1 | inactive: -7.17%
19 | COc1cc(OC)cc(C(=O)NCC2(N3CCOCC3)CCCCC2)c1 | inactive: 18.8%
20 | CCC(CO)(C(=O)OC1CN2CCC1CC2)c1ccccc1 (stereo unspecified) | inactive: -7.86%
21 | CN1CCC(Nc2ccc(Cl)cc2)CC1 | inactive: 14.2%

Row | SMILES | inhibition
22 | CCCOc1ccc(C)cc1CN(CCCl)CCCl | inactive: 13.7%
23 | CN1CCC(Nc2ccc(F)c(Cl)c2)CC1 | inactive: -11.2%
24 | CCOc1ncccc1C(=O)NCC1(N2CCOCC2)CCCCC1 | inactive: 10.2%
25 | O=C(O)C1(Nc2ccccc2)CCN(Cc2ccccc2)CC1 | inactive: -11.9%
26 | CC(C)(C)OC(=O)N1CCC(Nc2ccccc2)CC1 | inactive: -7.97%
27 | CCCOc1ccc(C(=O)NCC2(N(C)C)CCCCC2)cc1 | inactive: -6.71%
28 | Cc1cc(C)cc(N(C(=O)c2ccccc2)C2CCN(C(=O)OC(C)(C)C)CC2)c1 | inactive: -12.1%
29 | O=C(NCC1(N2CCCCC2)CCCCC1)c1ccc(Cl)nc1 | inactive: -18%
30 | O=C(NCC1(N2CCOCC2)CCCCC1)c1cc2ccccc2o1 | inactive: -9.31%
31 | COc1ccc(Cl)cc1C(=O)NCC1(N2CCOCC2)CCCCC1 | inactive: 1.82%
32 | N#CC1(Nc2ccccc2)CCN(Cc2ccccc2)CC1 | inactive: 5.2%
33 | O=C(NCC1(N2CCCCC2)CCCCC1)c1ccc(Cl)s1 | inactive: -25.1%
34 | O=C(OC1CN2CCC1CC2)C1c2ccccc2Oc2ccccc21 (stereo unspecified) | inactive: -2.87%
35 | CCOC(=O)N1CCC(Nc2ccc(OC)cc2)CC1 | inactive: 7.88%
36 | COc1ccc(C(=O)NCC2(N3CCCCC3)CCCCC2)c(OC)c1OC | inactive: 14.2%
37 | CC(C)(C)OC(=O)N1CCC(N(C(=O)c2ccccc2)c2ccc(F)cc2)CC1 | inactive: 13.9%
38 | COc1ccc(C(=O)NCC2(N3CCCCC3)CCCCC2)cc1 | inactive: -17.2%
39 | O=C(NCC1(N2CCCCC2)CCCCC1)c1cccs1 | inactive: 11.5%
40 | O=C(NCC1(N2CCCCC2)CCCCC1)c1ccc(=O)[nH]c1 | inactive: 7.44%
41 | CSc1ccccc1C(=O)NCC1(N2CCCCC2)CCCCC1 | inactive: -13.6%
42 | Cc1ccc(OCC(C)C)c(CN(CCCl)CCCl)c1 | inactive: -6.92%

Row | SMILES | inhibition
43 | CCOC(=O)N1CCC(Nc2cccc(C)c2)CC1 | inactive: 8.31%
44 | CCOc1ccc(C)cc1CN(CCCl)CCCl | inactive: 1.89%
45 | COc1ccc(NC2CCN(CCc3ccccc3)CC2)c(OC)c1 | inactive: -6.89%
46 | O=C(NCC1(N2CCCCC2)CCCCC1)c1ccc(F)cc1 | inactive: -0.59%
47 | O=C(NCC1(N2CCCCC2)CCCCC1)c1cccc(C(F)(F)F)c1 | inactive: 0.36%
48 | O=C(NCC1(N2CCOCC2)CCCCC1)c1cc(=O)[nH]c2ccccc12 | inactive: 11.4%
49 | COc1cc(C(=O)NCC2(N3CCCCC3)CCCCC2)ccc1OC(F)F | inactive: -13.8%
50 | COc1ccc(NC2CCN(C(=O)OC(C)(C)C)CC2)cc1 | inactive: -13.3%
51 | CN1CCN(CCOC(=O)C(O)(c2ccccc2)c2ccccc2)CC1 | inactive: 3.03%
52 | O=C(NCC1(N2CCCCC2)CCCCC1)c1ccc(OC(F)F)cc1 | inactive: -0.45%
53 | N#CC1(Nc2ccccc2)CCN(CCc2ccccc2)CC1 | inactive: -19.9%
54 | CCN1CCC(Nc2ccc(Cl)cc2)CC1 | inactive: 14.9%
55 | O=C(NCC1(N2CCCCC2)CCCCC1)c1cccc([N+](=O)[O-])c1 | inactive: -1.24%
56 | CN1CCC(Nc2cccc(F)c2)CC1 | inactive: 13.7%
57 | O=C(NCC1(N2CCCCC2)CCCCC1)c1cncc(Br)c1 | inactive: 10.6%
58 | CC(C)c1ccc(NC2CCN(C(=O)OC(C)(C)C)CC2)cc1 | inactive: 1.68%
59 | CN(C)c1cccc(C(=O)NCC2(N3CCCCC3)CCCCC2)c1 | inactive: -4.33%
60 | COc1ccc(CN(CCCl)CCCl)cc1Cl | inactive: 5.81%
61 | COc1cc(OC)c(C(=O)NCC2(N(C)C)CCCCC2)cc1OC | inactive: 10.2%
